Human monoclonal antibodies against the spike receptor-binding domain (heavy:light variable regions). IC50 against pseudoviruses bearing the spike of naturally observed variants; lower = stronger; >10 µg/ml means not reached at the top dose. No active / inactive call. The stated detection limit is 0.0005 µg/ml; values near or below 0.001 µg/ml lie at the floor of the assay.
B1: BD57-035 (protein)
chain 1: QVQLQESGPGLVRPSQTLSLTCSVSGGSISSGSYYWSWIRQPAEKGLEWIGRIYATGNTNYNPSLKSRVTISVDTSKNQFSLRLSYVTAADTAVYYCARERNPTIFGVADDLPGVCWGQGTLVTVSS
chain 2: DIQMTQSPSSLSASVGDRVTITCQASQDIRDFLNWYQQKPGKAPKLLIYDVSNLETGVPSRFSGSGSGTDFTFTISSLQPEDVATYYCQQFDTLITFGGGTKVEI
B2: BD57-001 (protein)
chain 1: EVQLVESGGGLVQPGGSLRLSCAASGVTVSSNYMTWVRQAPGKGLEWVSVIYSGGSTFYADSVKGRFTISRDNSKNTLYLQMNSLRAEDTAVYYCARELPHWEGYFDYWGQGTLVTVSS
chain 2: QSVLTQPPSVSGAPGQRVTISCTGSSSTIGAGYDVHWYQQLPETAPKLLIYGNSNRPSGVPDRFSGSKSGTSASLAITGLQAEDEADYYCQSYDSSLSGWVFGGGTKLTVL
B3: BD57-004 (protein)
chain 1: QVQLVQSGGEVKKPGASVKVSCKASGYTFTSYGISWVRQAPGQGLEWMGWISAYNDNTNYEQKFQGRVTMTTDTSTTTAYMELRSLRSDDTAVYYCARYGLYYFDRSGNYDMSPDDSFDIWGQGTMVTVSS
chain 2: QSVLTQPPSVSGAPGQRVTISCTGSSSNIGAGYDIHWYQQLPGTAPKLLIYGNSNRPSGVPDRFSGSKSGTSASLAITGLQAEDEADYYCQSYDSSLSGVVFGGGTKLTVL
B4: BD57-038 (protein)
chain 1: QMQLVQSGPEVKKPGTSVKVSCKASGFTFSTSAVQWVRQARGQRLEWIGWLVVGSGNTDYAQKFQERVTMTRDESTGTAYMELSSLRSEDTAVYYCAAPNCNRTTCHDGFDIWGQGTVVSVSS
chain 2: EIVLTQSPGTLSLSPGERATLSCRASQSVSSNYLAWYQQNPGQAPRVLIYGASSRASGIPDRFSGSGSGTDFTLTISRLEPEDFAMYYCQQYGRSPWTFGQGTKVEIK
B5: BD57-021 (protein)
chain 1: EVQLVESGGGLVQPGGSLRLSCAVSGIIVSRNYMSWVRQAPGKGLEWVSIMYSGGSTFYADSVKGRFTISRDDSKNTLYFQMNSLRDEDTAIYYCARDLLEAGGTDQWGQGTLVTVSS
chain 2: DIVLTQSPGTLSLSPGERATLSCRASQSVSSSSLAWYQQKPGQAPRLLIYGASTRATGIPDRFSGSGSGTDFTLTISRLEPEDFAVYYCQQYGSSPGYTFGQGTKLEIK
B6: BD57-033 (protein)
chain 1: EVQLVESGGGLVQPGGSLRLSCAASGIIVSSNYMNWVRQAPGKGLEWVSVLYSGGSTFYADSVKGRFIITRDNSKNTLYLQMNSLRVEDMAVYYCARSYGDYYFDYWGQGTLVTVSS
chain 2: EIVLTQSPGTLSLSPGERATLSCRASQSVSSDYLAWYQQKPGQAPRLLIFGASSRATGIPDRFSGSGSGTDFTLTIRRLEPEDFAVYYCQQDGYTFGQGTKLEIK
B7: BD57-014 (protein)
chain 1: EVQLVESGGGLVKPGGSLRLSCAASGFTFSDYTMNWVRQAPGKGLEWVSSISSGSDYIYYADSVKGRFTISRDNAKNSVYMQMNSLRAEDMAVYYCASGGDWFDPWGQGTLVTVSS
chain 2: SYELTQPPSVSVSPGQTASITCSGHKLGDKYASWYQQKPGQSPVLVVYQDSNRPSGIPERFSGSNSGNTATLTISGTQAMDEADYYCQAWDSNTVLFGGGTKLTVL
B8: BD57-037 (protein)
chain 1: QGQLVQSGSELQKPGASVRVSCKASGFTLTSYAINWVRQAPGQGLEWMGWINTNTGNPTYAQGFTGRFVFSLDTSVSTANLQISSLKSEDTAVYYCARVGRYSISWLDDAFDIWGQGTMVTVSS
chain 2: DIVMTQSPDSLAVSLGERATINCKSSHSVLYTSDNKNFLAWYQQKPGQPPKLLIYWASTRESGVPDRFSGSGSGTDFTLTISSLQAEDVAVYYCQQYYSTPLTFGGGTKVEIK
B9: BD57-005 (protein)
chain 1: QVQLVQSGAEVKKPGSSVKVSCKASGGTFSTYAINWVRQAPGQGLEWMGRIISMFDKANYAQNFQGRVTITADKSTTTAYMELNSLRSEDTAVYYCATTKFFYETGVGYYFDYWGQGTLVTVSS
chain 2: EIVLTQSPGTLSLSPGERATLSCRASQNLDSNYLAWYQQKPGQAPRLLIYGASNRATGIPDRFSGSGSGTDFILTISRLEPEDFAVYYCQQYHTSRTFGQGTKVEIK
B10: BD57-013 (protein)
chain 1: EVQLVESGGGLVRPGGSLRLSCAASGIIVSSNYMSWVRQAPGKGLEWVSVIYSGGSTFYADSVKGRFTISRHNSKNTLYLQMNSLRAEDTAVYYCARDLYSSGGTDIWGQGTMVTVSS
chain 2: EIVLTQSPGTLSLSPGERATLSCRASQSVSSSYLAWYQQKPGQAPRLLIYGTSRRATGIADRFSGSGSGADFTLTISRLEPEDFAVYYCQEYGSTTVTFGGGTKVEIK
B11: BD57-031 (protein)
chain 1: QMQLVQSGPEVKKPGTSVKVSCKASGFTFITSAVQWVRQARGHRLEWIGWIAVGRGNTDYAQRFQERVTITRDVSTTTAYMELSSLRPDDTAVYYCAAPYCSGGTCNDGFDIWGQGTMVTVSS
chain 2: EIVLTQSPGTLSLSPGERATLSCRASQSVSSSYLAWYQQKPGQAPRVLIYGASRRATGIPDRFSGSGSGTDFTLTISRLEPEDFAVYYCQQYGTSPWTFGQGTKVEIK
B12: BD57-016 (protein)
chain 1: QVQLVESGGGLVKPGGSLRLSCAASGFTFGDYNLRWIRQAPGKGLEWVSYISSSGSSIYYADSVKGRFTISRENAKNSLYLQMNSLRAEDTAIYYCARDLWTISSGWFALDGQAFDSWGQGTLVTVSS
chain 2: QSVLTQPPSVSGAPGQRVTISCTGSSSNIGADYDVHWYQQLPGTAPKLLIYTNSNRPSGVPDRFSGSKSGTSASLAITGLQAEDEANYYCQSYDSSLSAPYWVFGGGTKLTVL

Experiments:
Assay in all cases: pseudovirus neutralization IC50; higher = weaker neutralization
[1] = target: SARS-CoV-2 Omicron BA.1 spike pseudovirus
Method: (§1)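 Single-round VSV luciferase pseudovirus mixed with antibody dilutions for 1 h and put on Huh-7 cells for about a day; IC50 from the dose curve.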

[2] = target: SARS-CoV-2 Omicron BA.2 spike pseudovirus
Method: as §1

[3] = target: SARS-CoV-2 Omicron BA.2.75 spike pseudovirus
Method: as §1

[4] = target: SARS-CoV-2 Omicron BA.5 spike pseudovirus
Method: as §1

[5] = target: SARS-CoV-2 Omicron BQ.1.1 spike pseudovirus
Method: as §1

[6] = target: SARS-CoV-2 Omicron XBB spike pseudovirus
Method: as §1

[7] = target: SARS-CoV-2 early D614G spike pseudovirus
Method: as §1

Binder | pseudovirus neutralization IC50 [1] [µg/mL] | pseudovirus neutralization IC50 [2] [µg/mL] | pseudovirus neutralization IC50 [3] [µg/mL] | pseudovirus neutralization IC50 [4] [µg/mL] | pseudovirus neutralization IC50 [5] [µg/mL] | pseudovirus neutralization IC50 [6] [µg/mL] | pseudovirus neutralization IC50 [7] [µg/mL]
B1 | 0.0847 | 0.0157 | 0.0723 | 0.263 | > 10 | > 10 | 0.0161
B2 | 0.403 | 0.437 | > 10 | 0.776 | > 10 | > 10 | 0.0195
B3 | 0.991 | > 10 | > 10 | > 10 | > 10 | > 10 | 0.413
B4 | 0.00268 | 0.00157 | 0.00299 | 2.67 | 7.41 | > 10 | 0.00368
B5 | 0.0127 | 0.0139 | 0.0242 | 0.0108 | 0.191 | 0.171 | 0.0169
B6 | 0.0121 | 0.00899 | 0.00819 | 0.00771 | 0.0161 | 0.0152 | 0.0236
B7 | 0.0413 | > 10 | > 10 | > 10 | > 10 | > 10 | 0.0399
B8 | 0.00438 | 0.00931 | 0.136 | 0.0392 | > 10 | > 10 | 0.00652
B9 | 0.0345 | 0.0335 | 0.00485 | > 10 | > 10 | > 10 | 0.00652
B10 | 0.0413 | 0.0546 | 0.0384 | 0.0507 | 2.63 | 3.07 | 0.00942
B11 | 0.0593 | 0.037 | 0.000972 | 8.18 | > 10 | > 10 | 0.001
B12 | 0.809 | > 10 | > 10 | > 10 | > 10 | > 10 | 0.104
